Anti-infective test results gathered from many reports (values: NIAID ChemDB through PubChem).

Common to all: growth or infection tests; species: HIV-1; cell line: CEM + CEM/0; endpoint: EC50

Rows are shuffled and stem from different studies. ECn: concentration that inhibits the pathogen or its effect by n%. An empty or dashed field is not shown.

smiles | strain | method | value
COC(=O)CCNP(=O)(OC[C@@H]1C=C[C@H](n2cc(C)c(=O)[nH]c2=O)O1)Oc1ccccc1 | IIIB | cytopathic effect / trypan blue | ≥250 µM
Cc1cn([C@H]2C=C[C@@H](CO)O2)c(=O)[nH]c1=O | IIIB | syncytia | 0.8 µM
Cc1cn([C@H]2C=C[C@@H](CO)O2)c(=O)[nH]c1=O | IIIB | cytopathic effect / trypan blue | 0.36 µM
CC(C)=CCOC[C@H]1O[C@@H](n2cc(C)c(=O)n(C)c2=O)[C@H](O[Si](C)(C)C(C)(C)C)C12OS(=O)(=O)C=C2N |  |  | 8.5 ± 2.1 µM
COC(=O)CCCCCCNP(=O)(OC[C@@H]1C=C[C@H](n2cc(C)c(=O)[nH]c2=O)O1)Oc1ccccc1 | IIIB | cytopathic effect / trypan blue | 50 µM
COC(=O)[C@@H](C)NP(=O)(OC[C@@H]1C=C[C@H](n2cc(C)c(=O)[nH]c2=O)O1)Oc1ccccc1 | IIIB |  | 3 µM
C=C(C)C(=O)NC(=O)NC1OC(CO[Si](C)(C)C(C)(C)C)C2(OS(=O)(=O)C=C2N)C1O[Si](C)(C)C(C)(C)C |  |  | >7 µM
COC(=O)C(C)NP(=O)(OC[C@@H]1C=C[C@H](n2cc(I)c(=O)[nH]c2=O)O1)Oc1ccccc1 | IIIB | syncytia | 3 µM
C=CCOC[C@H]1O[C@@H](n2cc(C)c(=O)n(C)c2=O)[C@H](O[Si](C)(C)C(C)(C)C)C12OS(=O)(=O)C=C2N |  |  | 4 µM
COC(=O)CCCCNP(=O)(OC[C@@H]1C=C[C@H](n2cc(C)c(=O)[nH]c2=O)O1)Oc1ccccc1 | IIIB | cytopathic effect / trypan blue | >250 µM
Cc1cn([C@@H]2O[C@H](COS(=O)(=O)c3ccccc3)C3(OS(=O)(=O)C=C3N)[C@H]2O[Si](C)(C)C(C)(C)C)c(=O)n(C)c1=O |  |  | >6.2 µM
CC1(C)[C@@H](CO)CC[C@@]1(C)Cn1nnc2c(=O)[nH]cnc21 |  |  | >100 µg/mL
CC(=O)N[C@@H]1OC(CO[Si](C)(C)C(C)(C)C)C2(OS(=O)(=O)C=C2N)C1O[Si](C)(C)C(C)(C)C |  |  | 2.4 µM
Cc1cn([C@@H]2O[C@H](COC(=O)C(C)C)C3(OS(=O)(=O)C=C3N)[C@H]2O[Si](C)(C)C(C)(C)C)c(=O)n(C)c1=O |  |  | ≥10 µM
CC1(C)[C@@H](CO)CC[C@@]1(C)Cn1cc(Br)c(=O)[nH]c1=O |  |  | >100 µg/mL
Cc1cn([C@@H]2O[C@H](CN3CCN(C)CC3)C3(OS(=O)(=O)C=C3N)[C@H]2O[Si](C)(C)C(C)(C)C)c(=O)n(C)c1=O |  |  | >50 µM
CC1(C)[C@@H](CO)CC[C@@]1(C)Cn1ccc(=O)[nH]c1=O |  |  | >100 µg/mL
COC(=O)[C@@H](NP(=O)(OC[C@@H]1C=C[C@H](n2cc(C)c(=O)[nH]c2=O)O1)Oc1ccccc1)C(C)C |  | cytopathic effect / microscopy | 13 µM
Cc1cn([C@@H]2O[C@H](COC(=S)N(C)C)C3(OS(=O)(=O)C=C3N)[C@H]2O[Si](C)(C)C(C)(C)C)c(=O)n(C)c1=O |  |  | >10 µM
CC1(C)[C@@H](CO)CC[C@@]1(C)Cn1cc(I)c(=O)[nH]c1=O |  |  | >100 µg/mL